These results are taken from PubChem BioAssay AID485275 (NMMLSC, 2010).

The entries are a selection whose mix differs from that of the whole data set. Calls of active or inactive are those of the source.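 How the source made its calls: active means plate passing quality check with inhibition over a set limit, or well fluorescence over plate mean plus 4 SD; inactive means the rest.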

A short description of the assay: inhibitors of Candida efflux pumps in yeast, primary screen, S. cerevisiae, Nile Red, multiplex (AID 485275).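 Further: Nile Red retained in pooled yeast measured as flow cytometry median fluorescence; 0% = buffer negative control and 100% = Enniatin B positive control; higher means more Nile Red kept so more efflux inhibition.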 Conditions: S. cerevisiae Candida pump triplex, at 10 µM, stronger effect = higher value.
The term inhibition denotes the drop in the measured response relative to a control, in per cent. Regarding `CN1CCC(Nc2cccc(F)c2)CC1`, the inhibition is inactive: -0.19%.

Consider `O=C(NCC1(N2CCCCC2)CCCCC1)c1cncc(Br)c1`, for which the inhibition was inactive: 0.02%.

Regarding `CCCOc1ccc(C(=O)NCC2(N(C)C)CCCCC2)cc1OC`, the inhibition was inactive: -0.15%.

In the case of `CN(C)c1cccc(C(=O)NCC2(N3CCCCC3)CCCCC2)c1`, the inhibition was inactive: -0.11%.

With `COc1ccc(CN(CCCl)CCCl)cc1Cl`, the inhibition is inactive: -0.03%.

For `CC(C)c1ccc(NC2CCN(C(=O)OC(C)(C)C)CC2)cc1`, the inhibition was inactive: 0%.

For the compound `O=C(NCC1(N2CCOCC2)CCCCC1)c1cc(F)c(F)cc1Cl`, the inhibition is inactive: 0.15%.

In the case of `COc1cc(OC)c(C(=O)NCC2(N(C)C)CCCCC2)cc1OC`, the inhibition is inactive: 0.22%.

Regarding `O=C(NCC1(N2CCCCC2)CCCCC1)c1cccc(C(F)(F)F)c1`, the inhibition is inactive: 0.09%.

As for `COc1ccc(NC2CCN(C(=O)OC(C)(C)C)CC2)cc1`, the inhibition was inactive: -0.1%.

As for `CN1CCN(CCOC(=O)C(O)(c2ccccc2)c2ccccc2)CC1`, the inhibition was inactive: 0.48%.

Take `O=C(NCC1(N2CCOCC2)CCCCC1)c1cc(=O)[nH]c2ccccc12`: the inhibition is inactive: 0.18%.

As to `COc1cc(C(=O)NCC2(N3CCCCC3)CCCCC2)ccc1OC(F)F`, the inhibition is inactive: -0.14%.

Regarding `O=C(NCC1(N2CCCCC2)CCCCC1)c1ccc(OC(F)F)cc1`, the inhibition is inactive: 0.13%.

With `O=C(NCC1(N2CCCCC2)CCCCC1)c1cccc([N+](=O)[O-])c1`, the inhibition was inactive: -0.09%.

As to `N#CC1(Nc2ccccc2)CCN(CCc2ccccc2)CC1`, the inhibition is inactive: -0.05%.

As to `CCN1CCC(Nc2ccc(Cl)cc2)CC1`, the inhibition is inactive: -0.1%.

Regarding `Cc1ccc(OCC(C)C)c(CN(CCCl)CCCl)c1`, the inhibition is inactive: 0.01%.

With `CCOC(=O)N1CCC(Nc2cccc(C)c2)CC1`, the inhibition was inactive: -0.07%.

Regarding `COc1cc(C(=O)NCC2(N(C)C)CCCCC2)ccc1OC(F)F`, the inhibition is inactive: -0.11%.

Turning to `CCOc1ccc(C)cc1CN(CCCl)CCCl`, the inhibition is inactive: -0.09%.

On to `CCOC(=O)N1CCC(Nc2ccc(F)cc2)CC1`, for which the inhibition was inactive: 0%.

For the compound `COc1ccc(NC2CCN(CCc3ccccc3)CC2)c(OC)c1`, the inhibition is inactive: 0.08%.

As for `O=C(NCC1(N2CCCCC2)CCCCC1)c1ccc(F)cc1`, the inhibition is inactive: 0.04%.

On to `O=C(NCC1(N2CCOCC2)CCCCC1)c1cc2ccccc2o1`, for which the inhibition is inactive: -0.08%.

With `Cc1cc(C)cc(N(C(=O)c2ccccc2)C2CCN(C(=O)OC(C)(C)C)CC2)c1`, the inhibition was inactive: 0.19%.

Consider `O=C(NCC1(N2CCCCC2)CCCCC1)c1ccc(Cl)nc1`, for which the inhibition was inactive: 0.01%.

In the case of `CCOC(=O)N1CCC(Nc2ccc(OC)cc2)CC1`, the inhibition was inactive: 0.1%.

As to `COc1ccc(Cl)cc1C(=O)NCC1(N2CCOCC2)CCCCC1`, the inhibition is inactive: 0.04%.

`O=C(NCC1(N2CCCCC2)CCCCC1)c1ccc(Cl)s1`: the inhibition is inactive: -0.07%.

As to `N#CC1(Nc2ccccc2)CCN(Cc2ccccc2)CC1`, the inhibition is inactive: -0.11%.

Consider `O=C(OC1CN2CCC1CC2)C1c2ccccc2Oc2ccccc21` (stereo unspecified), for which the inhibition is inactive: -0.09%.

For `O=C(NCC1(N2CCCCC2)CCCCC1)c1cccs1`, the inhibition is inactive: -0.18%.

In the case of `O=C(NCC1(N2CCCCC2)CCCCC1)c1ccc(=O)[nH]c1`, the inhibition is inactive: -1.16%.

`COc1ccc(C(=O)NCC2(N3CCCCC3)CCCCC2)c(OC)c1OC`: the inhibition is inactive: -0.09%.

Turning to `CC(C)(C)OC(=O)N1CCC(N(C(=O)c2ccccc2)c2ccc(F)cc2)CC1`, the inhibition is inactive: -0.01%.

As for `COc1ccc(C(=O)NCC2(N3CCCCC3)CCCCC2)cc1`, the inhibition was inactive: 0.05%.

On to `CSc1ccccc1C(=O)NCC1(N2CCCCC2)CCCCC1`, for which the inhibition is inactive: -0.04%.

On to `CCC(CO)(C(=O)OC1CN2CCC1CC2)c1ccccc1` (stereo unspecified), for which the inhibition was inactive: -0.21%.

Take `COc1cccc(C(=O)N(c2cc(C)cc(C)c2)C2CCN(C(=O)OC(C)(C)C)CC2)c1`: the inhibition was inactive: 0.28%.

Consider `COc1cc(OC)cc(C(=O)NCC2(N3CCOCC3)CCCCC2)c1`, for which the inhibition was inactive: 0.05%.

Regarding `CCCOc1ccc(C)cc1CN(CCCl)CCCl`, the inhibition is inactive: 0.09%.

Regarding `CN1CCC(Nc2ccc(Cl)cc2)CC1`, the inhibition was inactive: -0.19%.

With `CN1CCC(Nc2ccc(F)c(Cl)c2)CC1`, the inhibition is inactive: 0.17%.

Take `CCOc1ncccc1C(=O)NCC1(N2CCOCC2)CCCCC1`: the inhibition was inactive: 0.1%.

With `CCCOc1ccc(C(=O)NCC2(N(C)C)CCCCC2)cc1`, the inhibition is inactive: -0.31%.

For `O=C(O)C1(Nc2ccccc2)CCN(Cc2ccccc2)CC1`, the inhibition is inactive: 0.06%.

Regarding `CC(C)(C)OC(=O)N1CCC(Nc2ccccc2)CC1`, the inhibition was inactive: -0.24%.

In the case of `CCN1CCC(Nc2cccc(F)c2)CC1`, the inhibition was inactive: 0%.

Turning to `CN(C)c1ccc(C(=O)NCC2(N3CCCCC3)CCCCC2)cc1`, the inhibition is inactive: 0.02%.

In the case of `O=C(NCC1(N2CCCCC2)CCCCC1)c1ccco1`, the inhibition was inactive: 0.22%.

With `COc1cc(OC)cc(C(=O)NCC2(N3CCCCC3)CCCCC2)c1`, the inhibition was inactive: -0.3%.

For `Fc1ccccc1NC1CCN(Cc2ccccc2)CC1`, the inhibition is inactive: 0.12%.

On to `Cc1ccc(C(=O)NCC2(N3CCCCC3)CCCCC2)o1`, for which the inhibition is inactive: 0.04%.

Consider `CCCN1CCC(Nc2cc(OC)cc(OC)c2)CC1`, for which the inhibition was inactive: -0.31%.

As to `c1ccc(CN2CCC(Nc3ccccc3)CC2)cc1`, the inhibition was inactive: 0.17%.

`CN(C)C1(CNC(=O)c2cccc(C#N)c2)CCCCC1`: the inhibition is inactive: 0.23%.

`CC(C)(C)OC(=O)N1CCC(N(C(=O)c2ccccc2)c2ccc(Cl)cc2)CC1`: the inhibition was inactive: -0.44%.

On to `N#Cc1ccc(C(=O)NCC2(N3CCCCC3)CCCCC2)cc1`, for which the inhibition is inactive: 0.03%.

Turning to `N/C(=N\O)c1c(N)no[n+]1[O-]`, the inhibition is inactive: 0.17%.

As to `CCOC(=O)N1CCC(Nc2ccc(C)cc2)CC1`, the inhibition is inactive: -0.04%.

On to `CCc1cc(C(=O)NCC2(N3CCCCC3)CCCCC2)sc1C`, for which the inhibition was inactive: -0.1%.

As to `O=C(OC1CN2CCC1CC2)C1c2ccccc2C=Cc2ccccc21` (stereo unspecified), the inhibition is inactive: -0.5%.

Take `O=C(NCC1(N2CCOCC2)CCCCC1)c1cc(Br)ccc1Cl`: the inhibition was inactive: 0.09%.

As to `COc1cc(C(=O)NCC2(N3CCOCC3)CCCCC2)cc(OC)c1C`, the inhibition is inactive: 0.1%.

Regarding `COc1ccc(C(=O)NCC2(N3CCOCC3)CCCCC2)cc1OC`, the inhibition is inactive: 0.06%.
